# Assay results reported in PMC8546121 (Nature Communications, 2021).
# B1: Junin virus (JUNV) Z protein (natural protein)
# chain: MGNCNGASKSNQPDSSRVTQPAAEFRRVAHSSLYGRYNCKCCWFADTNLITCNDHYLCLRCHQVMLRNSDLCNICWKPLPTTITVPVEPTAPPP
# B2: Sabiá virus (SABV) Z protein (natural protein)
# chain: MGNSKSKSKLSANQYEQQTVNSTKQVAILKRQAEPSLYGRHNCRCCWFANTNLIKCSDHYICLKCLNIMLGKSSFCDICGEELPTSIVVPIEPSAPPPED
# B3: Chapare virus (CHAV) Z protein (natural protein)
# chain: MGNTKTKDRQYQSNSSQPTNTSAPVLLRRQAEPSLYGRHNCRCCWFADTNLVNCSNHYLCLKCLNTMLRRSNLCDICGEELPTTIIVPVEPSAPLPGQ
# B4: Tacaribe virus (TCRV) Z protein (natural protein)
# chain: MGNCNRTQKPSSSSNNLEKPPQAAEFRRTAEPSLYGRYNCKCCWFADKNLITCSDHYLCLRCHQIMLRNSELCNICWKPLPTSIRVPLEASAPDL
# Target: Machupo virus (MACV) L protein (Machupo virus, UniProt Q6IUF8 1-2209)
# Test: pull-down
row,Binder,binding result
1,B1,binds
2,B2,binds
3,B3,binds
4,B4,binds
